Some peptides are written in HELM: one residue between dots, names in brackets for other building blocks, links after the first $.

The data set can be described thus: general procedure: Fmoc solid-phase peptide synthesis; Rapp Polymere tentagel S RAM resin; HOBt/HBTU, DIPEA. As to conditions: whole synthesis, 215 nm, scale of the general procedure 5 μmol.

Cyclo(Ac-yTYYVLLQRWPPVWAPC)G-NH2: the “crude HPLC purity” value worked out at 66% and the “final HPLC purity” value was >90%.
In the same order, the values of “PEPTIDE1{[CH2CO].[dY].L.K.I.Y.W.S.K.I.H.G.L.V.S.E.W.C.G.[am]}$PEPTIDE1,PEPTIDE1,1:R3-18:R3$$$V2.0” are 29% and >95%.
For the substance Cyclo(Ac-yFLC)TKWNYGRWYLFYCG-NH2, the “crude HPLC purity” value is 20%.
Take Cyclo(Ac-yIVLAWKGHYLESRWTC)G-NH2: the “crude HPLC purity” value is 29%.
Take Cyclo(Ac-ySYFIWANFQTEPYFVC)G-NH2: the “crude HPLC purity” value worked out at 26% and the “final HPLC purity” value is >95%.
In the same order, the values of “PEPTIDE1{[CH2CO].[dY].V.L.F.R.W.D.H.G.T.L.A.T.H.W.V.C.G.[am]}$PEPTIDE1,PEPTIDE1,1:R3-18:R3$$$V2.0” are 61% and >95%.
Cyclo(Ac-YRFLWSSFSSQPSWVHC)G-NH2: the “crude HPLC purity” value was 72%.
As to Cyclo(Ac-yRVFNISWDGEYRSWWC)G-NH2, the “crude HPLC purity” value worked out at 54%.
As for Cyclo(Ac-YVQIFDRYGIYSGKWSC)G-NH2, the “crude HPLC purity” value came to 31%.
For “PEPTIDE1{[CH2CO].Y.R.W.V.W.T.S.F.F.S.E.P.Y.F.V.V.C.G.[am]}$PEPTIDE1,PEPTIDE1,1:R3-18:R3$$$V2.0”, the “final HPLC purity” value is >95%.
For the substance Cyclo(Ac-yVKIVWFEGTLNTTWFC)G-NH2, the “crude HPLC purity” value stood at 29%.
Take Cyclo(Ac-YSNNRNWLPHDWQVLYC)G-NH2: the “crude HPLC purity” value worked out at 95%.
In the case of Cyclo(Ac-yAFWIRWTNHYRSGFTC)G-NH2, the “crude HPLC purity” value was found to be 60% and the “final HPLC purity” value was >95%.
Consider Cyclo(Ac-yRQWFYLGKYYC)TWSCCG-NH2, for which the “crude HPLC purity” value came to 28%.
Same read-out and setting: under Cyclo(Ac-YSYFDVNTIFWFSPFC)CG-NH2 stands 8%; under Cyclo(Ac-YYKALWINATFYQSLVC)G-NH2, 9%.
Still for that read-out and setting: under Cyclo(Ac-yLIWPSFNQNAKIIFPC)G-NH2 stands 55%.
With Cyclo(Ac-yIRLFWINGNLVSEWNC)G-NH2, the “crude HPLC purity” value came out at 30% and the “final HPLC purity” value is on record as >95%.
With Cyclo(Ac-yFVNWYWHGEKLFYRYC)G-NH2, the “crude HPLC purity” value came to 26%.
The same measure, in the same setting: under Cyclo(Ac-YYSWFEATGRFRAIFSC)G-NH2 stands 34%.
“Cyclo(Ac-YITRFTPWPKLYPVWDC)G-NH2 (cyclized, N-acetyl, extra C-terminal Gly amide)”: the “final HPLC purity” value was >95%.
Take “PEPTIDE1{[CH2CO].Y.W.H.K.N.K.Y.V.L.T.Y.S.C.L.F.A.A.G.[am]}$PEPTIDE1,PEPTIDE1,1:R3-14:R3$$$V2.0”: the “final HPLC purity” value is >95%.
On to Cyclo(Ac-yVIAIRPFSQLCWRWVC)G-NH2, for which the “crude HPLC purity” value is 19%.

The values above are taken from paper PMC9486808 (ACS Chemical Biology, 2022).
